Experimental data taken from article PMC11513920, “Building Metabolically Stable and Potent Anti-HIV Thioether-Lipid Analogues of Tenofovir Exalidex: A thorough Pharmacological Analysis” (Journal of Medicinal Chemistry, 2024).

These molecules were tested on HIV-1 subtype C strain MJ4 (assay: Single-cycle non-replicating HIV pseudoviral luciferase assay in HEK293T cells). Conditions: CC50/HIV (MJ4) IC50.
In the case of C[C@H](Cn1cnc2c(N)ncnc21)OCP(=O)(O)OCCCSCCCCCCCCCCCCC#C[Si](C)(C)C.N [15c], the therapeutic index is reported as >4170. In the case of C[C@H](Cn1cnc2c(N)ncnc21)OCP(=O)(O)OCCCSCCCCCCCCCCCCC1CCCCC1.N [16h], the therapeutic index is reported as 6250. In the case of C[C@H](Cn1cnc2c(N)ncnc21)OCP(=O)(O)OCCCSCCCCCCCCCCCCC#CC(C)(C)C.N [15e], the therapeutic index is reported as >516. CCCCCCCCCCSCCCCCCCCCOP(=O)(O)CO[C@H](C)Cn1cnc2c(N)ncnc21.N [2d] was tested, and the therapeutic index was >1720. With C[C@H](Cn1cnc2c(N)ncnc21)OCP(=O)(O)OCCCSCCCCCCCCCCC#Cc1ccc(F)cc1.N [15g] the therapeutic index was >10,000. C[C@H](Cn1cnc2c(N)ncnc21)OCP(=O)(O)OCCCSCCCCCCCCCCCCc1ccccc1.N [16f] was tested, and the therapeutic index was >12,500. With C[C@H](Cn1cnc2c(N)ncnc21)OCP(=O)(O)OCCCSCCCCCCCCCCCOC1CCCCC1.N [23d] the therapeutic index was >542. For C[C@H](Cn1cnc2c(N)ncnc21)OCP(=O)(O)OCCCSCCCCCCCCCCCCc1ccc(F)cc1.N [16g], the therapeutic index was >8065. With C#CCCCCCCCCCCCCCCSCCCOP(=O)(O)CO[C@H](C)Cn1cnc2c(N)ncnc21 [15b] the therapeutic index was >3570. With CCCCCCCSCCCCCCCCCCCCOP(=O)(O)CO[C@H](C)Cn1cnc2c(N)ncnc21.N [2e] the therapeutic index was >296. In the case of C[C@H](Cn1cnc2c(N)ncnc21)OCP(=O)(O)OCCCSCCCCCCCCCCC#Cc1ccccc1.N [15f], the therapeutic index is reported as >12,500. CCCCCCCCCCCCCSCCCCCCOP(=O)(O)CO[C@H](C)Cn1cnc2c(N)ncnc21.N [2c] was tested, and the therapeutic index was >1370. C[C@H](Cn1cnc2c(N)ncnc21)OCP(=O)(O)OCCCSCCCCCCCCCCCOc1ccccc1.N [23a] was tested, and the therapeutic index was >11,100. CCCCCCCCCCCCCCSCCCOP(=O)(O)CO[C@H](C)Cn1cnc2c(N)ncnc21.N [2h] was tested, and the therapeutic index was >16,700. For C[C@H](Cn1cnc2c(N)ncnc21)OCP(=O)(O)OCCCSCCCCCCCCCCC#CC1CCCCC1.N [15h], the therapeutic index was >7580. In the case of COC(=O)CCCCCCCCCCCCCCCSCCCOP(=O)(O)CO[C@H](C)Cn1cnc2c(N)ncnc21.N [23e], the therapeutic index is reported as >70. With CCCCSCCCCCCCCCCCCCCCOP(=O)(O)CO[C@H](C)Cn1cnc2c(N)ncnc21.N [2f] the therapeutic index was >331. In the case of C[C@H](Cn1cnc2c(N)ncnc21)OCP(=O)(O)OCCCSCCCCCCCCCCCSc1ccccc1.N [23b], the therapeutic index is reported as >2000.
